A mixed list of measured activities; the numbers were collected in NIAID ChemDB.

All rows: whole-cell or culture tests; species: Vaccinia virus; cell line: E6SM; measure: EC50

Conditions beyond the fields shown may differ between rows.

smiles	result
Nc1nc2c(nnn2C[C@H]2CC[C@@H](CO)C2)c(=O)[nH]1	>200 µg/mL
Oc1cccc(O)c1O	30 µg/mL
Nc1nc2c(ncn2C[C@H]2CC[C@@H](CO)C2)c(=O)[nH]1	>400 µg/mL
C[C@H](O)[C@@H]1C[C@H](CCn2cnc3c(N)ncnc32)C1(C)C	>150 µg/mL
OCCOC(CO)n1cnc2cc(Cl)c(Cl)cc21	>200 µg/mL
O=c1[nH]c(=O)n([C@H]2C[C@H](O)[C@@H](CO)O2)cc1/C=C/Br	1 µg/mL
O[C@@H]1CC(n2cnc3cc(Cl)c(Cl)cc32)OC[C@@H]1O	>100 µg/mL
O=c1[nH]c(=O)n([C@H]2C[C@H](O)[C@@H](CO)S2)cc1C1CCCC1	760 µM
O=C(O)Cc1cc(O)ccc1O	7 µg/mL
Nc1ncnc2c1ncn2[C@@H]1O[C@H](C#CCl)[C@@H](O)[C@H]1O	70 µM
O[C@H]1[C@@H](O)COC(n2cnc3cc(Cl)c(Cl)cc32)[C@@H]1O	>400 µg/mL
Nc1nc(F)nc2c1ncn2[C@@H]1C=C(CCO)[C@@H](O)[C@H]1O	0.1 µg/mL
O=c1ccn([C@H]2C[C@H](O)[C@@H](CO)S2)c(=O)[nH]1	1.6 µM
C[C@H](O)[C@]1(C)C[C@H](Cn2nnc3c(N)ncnc32)C1(C)C	70 µg/mL
Nc1ncnc2c1ncn2[C@@H]1OC(C#CI)[C@@H](O)[C@H]1O	0.1 µg/mL
C[C@H](O)[C@@H]1C[C@H](Cn2cnc3c(N)ncnc32)C1(C)C	>300 µg/mL
OCCOC([C@H](O)CO)n1cnc2cc(Cl)c(Cl)cc21	>400 µg/mL
Cn1cc(NC(=O)c2cc(NC(=O)CCCCC(=O)Nc3cc(C(=O)Nc4cc(C(=O)NCCC(N)=[NH2+])n(C)c4)n(C)c3)cn2C)cc1C(=O)NCCC(N)=[NH2+]	0.2 µg/mL
Nc1nccc2c1ncn2[C@@H]1C[C@H](CO)[C@@H](O)[C@H]1O	2 µg/mL
O=C(O)c1cc(O)c(O)c(O)c1	2 µg/mL
OCCOC(CCO)n1cnc2cc(Cl)c(Cl)cc21	>100 µg/mL
O=c1[nH]c(=O)n([C@H]2C[C@H](O)[C@@H](CO)O2)cc1/C=C/Br	2 µg/mL
O=c1[nH]c(=O)n([C@H]2C[C@H](O)[C@@H](CO)O2)cc1C1CCC1	850 µM
Nc1nc(Cl)c2nnn(C[C@H]3CC[C@@H](CO)C3)c2n1	>200 µg/mL
O=C(O)c1cc(O)ccc1O	7 µg/mL

2 of the rows above, restated:

smiles | result
OCCOC([C@H](O)CO)n1cnc2cc(Cl)c(Cl)cc21 | >400 µg/mL
O=C(O)Cc1cc(O)ccc1O | 7 µg/mL

ECn: concentration that inhibits the pathogen or its effect by n%.